Results deposited as PubChem BioAssay AID624099 (ICCB-Longwood, 2012)
Test: 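Host factors E2 relies on to silence an HPV18 LCR reporter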 (primary screen). System: human C33A cervical carcinoma cells (HPV-negative) stably expressing BPV1 E2 and an HPV18 LCR luciferase reporter. Reagents: siRNA pool against human genes, 40 nM. Time to read-out: 72 h. Read-out: 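HPV18 LCR reporter light per well, converted to plate-wise z-scores that exclude control wells, and averaged over triplicate plates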. Reading the numbers: mean z-score and z-score: higher = stronger reporter signal, weaker E2 silencing. Call rule: 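Hit if mean z-score reaches 2 and two or more of three replicate z-scores also reach 2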.
The whole screen tested about 21,000 reagents; shown is a part drawn at random. Of all reagents, 497 (2.4%) were called active. 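Higher z means weaker E2 silencing; only reporter increases were scored, and knock-downs that hurt cell survival may mask genuine repressor factors.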

MFAP3 (GeneID 4238) | mean z-score: -0.98; z-score, replicate A: -1.12; z-score, replicate B: -0.95; z-score, replicate C: -0.87; Outcome: inactive
ERICH1 (GeneID 157697) | mean z-score: 0.55; z-score, replicate A: 0.78; z-score, replicate B: 0.5; z-score, replicate C: 0.36; Outcome: inactive
CLDN1 (GeneID 9076) | mean z-score: -0.42; z-score, replicate A: -0.5; z-score, replicate B: -0.37; z-score, replicate C: -0.39; Outcome: inactive
QSOX2 (GeneID 169714) | mean z-score: -0.31; z-score, replicate A: -0.48; z-score, replicate B: 0.33; z-score, replicate C: -0.77; Outcome: inactive
GNRH2 (GeneID 2797) | mean z-score: -0.91; z-score, replicate A: -0.92; z-score, replicate B: -0.95; z-score, replicate C: -0.87; Outcome: inactive
GTF3C2 (GeneID 2976) | mean z-score: -0.09; z-score, replicate A: -0.03; z-score, replicate B: -0.15; z-score, replicate C: -0.1; Outcome: inactive
CHD4 (GeneID 1108) | mean z-score: -0.81; z-score, replicate A: -0.78; z-score, replicate B: -0.81; z-score, replicate C: -0.85; Outcome: inactive
PAFAH1B3 (GeneID 5050) | mean z-score: 0.16; z-score, replicate A: -0.24; z-score, replicate B: 0.24; z-score, replicate C: 0.49; Outcome: inactive
BSND (GeneID 7809) | mean z-score: -0.7; z-score, replicate A: -0.75; z-score, replicate B: -0.68; z-score, replicate C: -0.66; Outcome: inactive
HSPBP1 (GeneID 23640) | mean z-score: -1.37; z-score, replicate A: -1.38; z-score, replicate B: -1.18; z-score, replicate C: -1.56; Outcome: inactive

2 entries from above, showing only “z-score, replicate B”:
QSOX2 (GeneID 169714) = 0.33
GNRH2 (GeneID 2797) = -0.95

Next results:
SNRPE (GeneID 6635) | mean z-score: -1.03; z-score, replicate A: -1.23; z-score, replicate B: -0.95; z-score, replicate C: -0.89; Outcome: inactive
RPL32P17 (GeneID 402716) | mean z-score: 1.11; z-score, replicate A: 1.04; z-score, replicate B: 1.08; z-score, replicate C: 1.22; Outcome: inactive
HOPX (GeneID 84525) | mean z-score: -1.36; z-score, replicate A: -1.29; z-score, replicate B: -1.48; z-score, replicate C: -1.31; Outcome: inactive
POLR2MP1 (GeneID 339970) | mean z-score: 0.69; z-score, replicate A: 0.9; z-score, replicate B: 0.99; z-score, replicate C: 0.16; Outcome: inactive
CIRBP (GeneID 1153) | mean z-score: 0.16; z-score, replicate A: -0.03; z-score, replicate B: 0.41; z-score, replicate C: 0.11; Outcome: inactive
IRAG1 (GeneID 10335) | mean z-score: -0.73; z-score, replicate A: -1.11; z-score, replicate B: -0.5; z-score, replicate C: -0.57; Outcome: inactive
FAM106A (GeneID 80039) | mean z-score: -0.57; z-score, replicate A: -0.86; z-score, replicate B: -0.4; z-score, replicate C: -0.45; Outcome: inactive
OR4F5 (GeneID 79501) | mean z-score: 0.87; z-score, replicate A: 0.36; z-score, replicate B: 0.73; z-score, replicate C: 1.52; Outcome: inactive
SMIM45 (GeneID 339674) | mean z-score: -0.03; z-score, replicate A: 0; z-score, replicate B: -0.13; z-score, replicate C: 0.03; Outcome: inactive
SEC13 (GeneID 6396) | mean z-score: 0.08; z-score, replicate A: 0.11; z-score, replicate B: -0.23; z-score, replicate C: 0.37; Outcome: inactive
SLC35F3 (GeneID 148641) | mean z-score: 0.19; z-score, replicate A: 0.15; z-score, replicate B: 0.01; z-score, replicate C: 0.4; Outcome: inactive
RHBDF1 (GeneID 64285) | mean z-score: -0.3; z-score, replicate A: -0.41; z-score, replicate B: 0.03; z-score, replicate C: -0.52; Outcome: inactive
PTPN20 (GeneID 26095) | mean z-score: 1.34; z-score, replicate A: 1.39; z-score, replicate B: 1.14; z-score, replicate C: 1.49; Outcome: inactive
POU6F2 (GeneID 11281) | mean z-score: 0.88; z-score, replicate A: 1; z-score, replicate B: 1.01; z-score, replicate C: 0.65; Outcome: inactive
CACNA2D2 (GeneID 9254) | mean z-score: 0.1; z-score, replicate A: 0.07; z-score, replicate B: 0.28; z-score, replicate C: -0.05; Outcome: inactive
UNC5D (GeneID 137970) | mean z-score: 0.21; z-score, replicate A: 0.25; z-score, replicate B: 0.21; z-score, replicate C: 0.18; Outcome: inactive
MFF (GeneID 56947) | mean z-score: -0.14; z-score, replicate A: 1.08; z-score, replicate B: -0.73; z-score, replicate C: -0.76; Outcome: inactive
